Test results taken from patent US20230302100A1.

Target: denosumab (XGEVA)
Experiment: cell-based or functional assay

Substance: pCART124 (IdeS with N terminal methionine and histidine tag) (enzyme)
- Conc. of enzyme for 2nd IgG2 (XGEVA) heavy chain cleavage (scIgG to F(ab')2), SDS-PAGE: 1100 ng/mL
- EC50, potency ELISA: 0.225 µg/mL
